Initial rate of substrate cleavage data for 1 protein are collected here from patent publication US7628992.

The target of the data set is HV62 peptide (synthetic 62-residue polypeptide corresponding to residues 33-94 of human VAMP-2), P63027.

B1: native TeTx L chain (authentic L chain of tetanus toxin) (protein)
chain: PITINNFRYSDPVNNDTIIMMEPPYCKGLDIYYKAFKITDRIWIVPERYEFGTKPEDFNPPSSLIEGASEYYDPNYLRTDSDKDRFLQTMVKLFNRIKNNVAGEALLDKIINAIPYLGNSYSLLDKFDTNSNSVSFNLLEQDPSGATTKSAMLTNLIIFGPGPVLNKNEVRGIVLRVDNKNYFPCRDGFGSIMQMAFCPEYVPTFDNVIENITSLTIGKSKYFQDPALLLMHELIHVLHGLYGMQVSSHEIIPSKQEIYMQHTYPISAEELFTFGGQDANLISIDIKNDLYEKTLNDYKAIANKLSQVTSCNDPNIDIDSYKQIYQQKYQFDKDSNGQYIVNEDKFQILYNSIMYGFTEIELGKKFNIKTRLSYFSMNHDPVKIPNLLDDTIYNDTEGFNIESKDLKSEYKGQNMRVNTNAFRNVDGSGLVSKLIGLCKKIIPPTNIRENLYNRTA
In turn, B1 gave an initial rate of substrate cleavage at 37° C. with 100 nM L chain of 45.6 pmol/min.
